According to PMC11925246 (Journal of Bacteriology, 2025):

Tested on: R. pseudosolanacearum resting cells
Format: cell-based
Details: malic acid 0.5 mM or sucrose 0.01%; for Cell number after incubation: 20 h, room temperature, start 1.4 × 10^8 CFU/mL (Fig. S2); for Effect on viability of resting cells: at least 20 h of incubation

SMILES | Cell number after incubation | Effect on viability of resting cells
O=C(O)CC(O)C(=O)O (stereo not shown) [Malic acid, malic acid] | 6.8 × 10^8 CFU/mL | did not affect the viability
OC[C@H]1O[C@@](CO)(O[C@H]2O[C@H](CO)[C@@H](O)[C@H](O)[C@H]2O)[C@@H](O)[C@@H]1O [sucrose] | 8.2 × 10^8 CFU/mL | did not affect the viability
